Anti-infective test results gathered from many reports (values: NIAID ChemDB through PubChem).

Common to all: tests in culture

Conditions beyond the fields shown may differ between rows. Fold resistance: result on the changed form divided by that on wild type. An empty or dashed field is not shown. A number after MIC or MFC names an inhibition level or a share of isolates. ECn: concentration that inhibits the pathogen or its effect by n%. Percent inhibition refers to the dose given; in toxicity tests it is the harm to the cells.

smiles | species | strain | changes | cells | method | measure | dose | value
O=C1Nc2ccc(Cl)cc2[C@@](/C=C/C2CC2)(C(F)(F)F)N1 | HIV-1 |  | RT-L100I |  |  | fold resistance |  | 10
O=C1N(CCCCCOc2ccc(-c3ccc(Cl)cc3)cc2)CCN1c1ccncc1 | Enterovirus | Clinical isolate 71 (4643) |  | RD | cytopathic effect | EC50 |  | 0.038 µM
S=c1[nH]nc(Cc2nc3n(n2)CCCCC3)o1 | Reovirus | TYPE 1 |  |  |  | MIC |  | >80 µg/mL
NSc1ncnc2c1ncn2[C@H]1C[C@H](O)[C@@H](CO)O1 | Semliki Forest virus |  |  |  | cytopathic effect | EC50 |  | >320 µM
CC[C@H]1OC(=O)[C@H](C)C(=O)[C@H](C)[C@@H](O[C@@H]2O[C@H](C)C[C@H](N(C)C)[C@H]2O)[C@](C)(OC)C[C@@H](C)C(=O)[C@H](C)[C@H]2N(CCCCn3cnc(-c4cccnc4)c3)C(=O)O[C@]12C | Haemophilus influenzae | 434 strains |  |  |  | MIC90 |  | 2 µg/mL
CCOC(=O)C(CC/C(=C/CCc1ccc2c(c1)OCO2)CC)C(=O)CC | Equine herpesvirus 4 |  |  |  |  | MIC |  | >50 µg/mL
Nc1nc2c(ncn2CCC(CO)CO)c(=O)[nH]1 | Human herpesvirus 7 | SB |  | HUMAN CORD BLOOD CELLS | antigen | inhibition | 10 µM | 30%
Nc1nccc2c1ncn2[C@@H]1CC[C@@H](O)[C@H]1O | Sindbis virus |  |  |  |  | MIC |  | >100 µg/mL
CN(C)c1cc(NC(=O)CNC(C)(C)C)c(O)c2c1C[C@H]1C[C@H]3[C@H](N(C)C)C(=O)C(C(N)=O)=C(O)[C@@]3(O)C(=O)C1=C2O | Enterococcus faecium | 40 strains (vancomycin-resistant) |  |  |  | MIC50 |  | ≤0.06 µg/mL
Nc1ncnc2c1ncn2[C@@H]1CC[C@@H](O)[C@H]1O | Reovirus | TYPE 1 |  |  |  | MIC |  | 0.07 µg/mL
Nc1ccn([C@@H]2O[C@H](CO)[C@@H](O)[C@@H]2O)c(=O)n1 | Herpes simplex virus 1 | FRAN |  |  |  | MIC |  | 4.4 µg/mL
Nc1nccc2c1ncn2[C@@H]1C=C[C@@H](O)[C@H]1O | Sindbis virus |  |  |  |  | MIC |  | >400 µg/mL
CC1(C)S[C@@H]2[C@H](NC(=O)[C@H](N)c3ccc(O)cc3)C(=O)N2[C@H]1C(=O)O | Streptococcus pneumoniae | 595 strains |  |  |  | MIC90 |  | ≤0.06 µg/mL
Nc1nccc2c1ncn2[C@@H]1C=C(CO)[C@@H](O)[C@H]1O | Parainfluenza virus | TYPE 3 |  |  |  | MIC |  | 0.2 µg/mL
Cc1cc(CCCCCOc2cc(Cl)c(-c3nnc(C)o3)c(Cl)c2)on1 | Rhinovirus | Serotype 1A |  |  |  | MIC80 |  | 0.44 µg/mL
C=CCc1ccc(O)c(OC)c1 | Candida tropicalis | 2480 |  |  | turbidity | MIC90 |  | 485 µg/mL
CC[C@H]1OC(=O)[C@H](C)[C@@H](O[C@H]2C[C@@](C)(OC)[C@@H](O)[C@H](C)O2)[C@H](C)[C@@H](O[C@@H]2O[C@H](C)C[C@H](N(C)C)[C@H]2O)[C@](C)(O)C[C@@H](C)/C(=N\OCOCCOC)[C@H](C)[C@@H](O)[C@]1(C)O | Haemophilus influenzae | 434 strains |  |  |  | MIC50 |  | 8 µg/mL
O=C(CC(=O)Nc1cc(C(F)(F)F)cc(C(F)(F)F)c1)Nc1ccc(C(F)(F)F)cc1 | Escherichia coli | ES142 |  |  |  | MIC |  | >300 µM
CCCCCCCCOC[N+](C)(C)CCCCCCCC | Staphylococcus aureus | ATCC33592 |  |  |  | MBC |  | 149 µM
CN(C)c1ncnc2c1ncn2Cc1ccccc1NC(=O)C(N)Cc1ccccc1 | Coronavirus |  |  | M-HELA | plaque count | EC50 |  | >50 µM
Nc1ncnc2c1ncn2[C@@H]1C=C[C@@H](O)[C@H]1O | Sindbis virus |  |  |  |  | MIC |  | >400 µg/mL
CN(C)c1cccc2c(S(=O)(=O)Nc3ccc(NC(=O)C(C)(C)CO)cc3)cccc12 | Guinea pig cytomegalovirus | ATCC VR682 |  | GPL | plaque count | EC50 |  | 0.5 µM
O=C(Nc1ccncc1)Nc1cc(C(F)(F)F)cc(C(F)(F)F)c1 | Klebsiella pneumoniae | KL21 |  |  |  | MIC |  | >300 µM
CC(C)(O)c1cn(-c2cccc3ccccc23)nn1 | Candida parapsilosis | URM 4818 |  |  | broth dilution | inhibition | 2048 µg/mL | 0%
CCCCCCCCCCCC[N+](C)(C)COCCCCCCCCCCC | Staphylococcus aureus | ATCC 6538 |  |  |  | MBC |  | 23 µM
CC(C)(O)c1cn(-c2ccccc2)nn1 | Candida tropicalis | URM 916 |  |  | broth dilution | inhibition | 2048 µg/mL | 0%
O=C(O)P(=O)(O)O | Cytomegalovirus | AD169 |  | HFF | hybridisation | inhibition | 400 µM | 96.1%
Cc1cc(CCCCCOc2cc(Cl)c(-c3nnco3)c(Cl)c2)on1 | Rhinovirus | Serotype 25 |  |  |  | MIC80 |  | 2.42 µg/mL
CCn1nc(CC(=O)NN=C(C)C)nc1C | Punta Toro virus |  |  |  |  | MIC |  | >80 µg/mL
CCCCCCCCCCCC[N+](C)(C)COCCCC | Staphylococcus aureus | ATCC33592 |  |  |  | MBC |  | 4.46 µM
CCC(=O)C(CCCc1ccc(O)cc1)C(=O)CC | Equine herpesvirus 4 |  |  |  |  | MIC |  | >50 µg/mL
CC(CCOc1ccc(-c2ccc(Cl)cc2)cc1)CCN1CCN(c2ccncc2)C1=O | Enterovirus | Clinical isolate 71 (2231) genotype C |  | RD | cytopathic effect | EC50 |  | 0.038 µM
CCCCCCCCCCCC[N+](C)(C)COCC(CC)CC | Staphylococcus aureus | ATCC33592 |  |  |  | MBC |  | 27.5 µM
O=C(Nc1cccc(C2=NCCN2)c1)Nc1cccc(C2=NCCN2)c1 | Klebsiella pneumoniae | KL21 |  |  |  | MIC |  | >300 µM
Nc1nc2c(ccn2[C@@H]2C[C@H](CO)[C@H](O)[C@@H]2O)c(=O)[nH]1 | Sindbis virus |  |  |  |  | MIC |  | >100 µg/mL
CCCCCCCCCCCC[N+](C)(C)COC1CCCCCCCCCCC1 | Staphylococcus aureus | ATCC33592 |  |  |  | MBC |  | 26.9 µM
CC1CCC(C(=O)N(c2cc(C#CC(C)(C)C)sc2C(=O)O)C2CCC(O)CC2)CC1 | Hepatitis C virus | H77 (GT1a) | L419M | Huh7 | luciferase | fold resistance |  | 50.9
CC(C)(O)c1cn(-c2ccc([N+](=O)[O-])cc2)nn1 | Candida albicans | URM 4820 |  |  | broth dilution | inhibition | 2048 µg/mL | 0%
CCC[C@H](O)C[C@@H]1CC[C@H](C)CCCCC(=O)N(C)[C@@H](Cc2ccc(OCCO)cc2)C(=O)O1 | Saccharomyces cerevisiae | ERG11 |  |  |  | MIC |  | 12.5 µg/mL
NC(=O)NNC(=O)Nc1cc(C(F)(F)F)cc(C(F)(F)F)c1 | Escherichia coli | ES142 |  |  |  | MIC |  | >446 µM
NSc1ncnc2c1ncn2[C@@H]1O[C@H](CO)[C@@H](O)[C@@H]1O | Semliki Forest virus |  |  |  | cytopathic effect | EC50 |  | >320 µM
CN(C)c1ncnc2c1ncn2Cc1cccc(N)c1 | Coronavirus |  |  | M-HELA | plaque count | EC50 |  | >50 µM
CC(C)(O)c1cn(-c2ccc3ccccc3c2)nn1 | Candida parapsilosis | URM 4607 |  |  | broth dilution | inhibition | 2048 µg/mL | 0%
[N-]=[N+]=N[C@H]1[C@@H](F)[C@H](N2C=CC(N)NC2=O)O[C@@H]1CO | Semliki Forest virus |  |  | VERO B | cytopathic effect | EC50 |  | >400 µg/mL
CCC(CC)O[C@@H]1C=C(C(=O)O)C[C@H](N)[C@H]1NC(C)=O | Influenza A virus | H3N2 A/X-31 |  | MDCK | visual reading | EC50 |  | 0.03 µM
CC(N)C12CC3CC(CC(C3)C1)C2 | Influenza A virus | H3N2 A/NY/83/R6 |  | MDCK | ELISA | EC50 |  | 27.5 µg/mL
CC(C)(CCOc1ccc(-c2ccc(Cl)cc2)cc1)CCN1CCN(c2ccncc2)C1=O | Enterovirus | Clinical isolate 71 (4643) |  | RD | cytopathic effect | EC50 |  | 0.041 µM
Brc1ccc(Cn2ccc3nc(-c4ccccc4)nc-3c2)cc1 | Bovine viral diarrhea virus | NADL (TYPE 1) |  | MDBK | MTS | EC50 |  | 0.04 µM
CCc1nc(CC(=O)NN=C(C)C)nn1CC | Punta Toro virus |  |  |  |  | MIC |  | >80 µg/mL
O=C1Nc2ccc(Cl)cc2[C@@](C#CC2CC2)(C(F)(F)F)N1 | HIV-1 |  | RT-K103N P225H |  |  | EC90 |  | ~0.085 µM
CCCCCCCCCCCC[N+](C)(C)COCCCCCCCCC | Staphylococcus aureus | ATCC 6538 |  |  |  | MBC |  | 3.69 µM
Cc1cc(N2CCCC2)c2ncc(CSCCc3ccccc3)n2c1 | Cytomegalovirus | AD169 |  |  | plaque count | EC50 |  | 20 µg/mL
CN(C)c1ncnc2c1ncn2Cc1ccc(N)cc1 | Coronavirus |  |  | M-HELA | plaque count | EC50 |  | >50 µM
Cc1cn([C@H]2O[C@H](CO)[C@@H](N=[N+]=[N-])[C@H]2F)c(=O)nc1N | Sindbis virus |  |  | VERO B | cytopathic effect | EC50 |  | >400 µg/mL
COc1ccc(-n2c(Cc3nc4n(n3)CCCC4)n[nH]c2=S)cc1 | Parainfluenza virus | TYPE 3 |  |  |  | MIC |  | >400 µg/mL
NS(=O)(=O)c1ncnc2c1ncn2[C@H]1C[C@H](O)[C@@H](CO)O1 | Semliki Forest virus |  |  |  | cytopathic effect | EC50 |  | >320 µM
NC(=NC1CCCC1)c1ccc(-c2ccc(-c3ccc(C(N)=NC4CCCC4)cc3)o2)cc1 | Candida albicans | A39 |  |  |  | MIC |  | 6.25 µg/mL
CCCCCCCC[N+](C)(C)COCCC(C)CCCC(C)C | Staphylococcus aureus | ATCC33592 |  |  |  | MBC |  | 137 µM
CCn1nc(Cc2n[nH]c(=S)o2)nc1C | Sindbis virus |  |  |  |  | MIC |  | >400 µg/mL
Cn1cc(C(=O)NCc2ccc(Cl)cc2)c(=O)c2cc(CN3CCOCC3)ccc21 | Varicella zoster virus | MC varicella isolate |  | HFF | plaque count | inhibition | 4.9 µM | 90%
CN(C)c1ncnc2c1ncn2Cc1ccccc1NC(=O)CN | Coronavirus |  |  | M-HELA | plaque count | EC50 |  | >50 µM
NNC(=O)Cc1nc2n(n1)CCCCC2 | Parainfluenza virus | TYPE 3 |  |  |  | MIC |  | 16 µg/mL
Nc1ncnc2c1c(Br)cn2COCCO | Guinea pig herpesvirus | Lymphotropic |  | GPE | plaque count | EC50 |  | 35.5 µg/mL
CCCCCCCCCCCC[N+](C)(C)COC1CCCC1 | Staphylococcus aureus | ATCC33592 |  |  |  | MIC |  | 2.87 µM
CCC(=O)C(CCCCCCc1ccc(OCCN(CC)CC)cc1)C(=O)CC | Equine herpesvirus 4 |  |  |  |  | MIC |  | >50 µg/mL

The last 9 rows once more:

smiles | species | strain | changes | cells | method | measure | dose | value
NC(=NC1CCCC1)c1ccc(-c2ccc(-c3ccc(C(N)=NC4CCCC4)cc3)o2)cc1 | Candida albicans | A39 |  |  |  | MIC |  | 6.25 µg/mL
CCCCCCCC[N+](C)(C)COCCC(C)CCCC(C)C | Staphylococcus aureus | ATCC33592 |  |  |  | MBC |  | 137 µM
CCn1nc(Cc2n[nH]c(=S)o2)nc1C | Sindbis virus |  |  |  |  | MIC |  | >400 µg/mL
Cn1cc(C(=O)NCc2ccc(Cl)cc2)c(=O)c2cc(CN3CCOCC3)ccc21 | Varicella zoster virus | MC varicella isolate |  | HFF | plaque count | inhibition | 4.9 µM | 90%
CN(C)c1ncnc2c1ncn2Cc1ccccc1NC(=O)CN | Coronavirus |  |  | M-HELA | plaque count | EC50 |  | >50 µM
NNC(=O)Cc1nc2n(n1)CCCCC2 | Parainfluenza virus | TYPE 3 |  |  |  | MIC |  | 16 µg/mL
Nc1ncnc2c1c(Br)cn2COCCO | Guinea pig herpesvirus | Lymphotropic |  | GPE | plaque count | EC50 |  | 35.5 µg/mL
CCCCCCCCCCCC[N+](C)(C)COC1CCCC1 | Staphylococcus aureus | ATCC33592 |  |  |  | MIC |  | 2.87 µM
CCC(=O)C(CCCCCCc1ccc(OCCN(CC)CC)cc1)C(=O)CC | Equine herpesvirus 4 |  |  |  |  | MIC |  | >50 µg/mL